In the supplement of paper PMC9931576:
Human monoclonal antibodies against the spike receptor-binding domain (heavy:light variable regions). IC50 against pseudoviruses bearing the spike of naturally observed variants; lower = stronger; >10 µg/ml means not reached at the top dose. No active / inactive call. The stated detection limit is 0.0005 µg/ml; values near or below 0.001 µg/ml lie at the floor of the assay.

Tests used:
Assay in all cases: pseudovirus neutralization IC50; higher = weaker neutralization
[1] = target: SARS-CoV-2 Omicron BA.1 spike pseudovirus
Protocol: (§1)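 Single-round VSV luciferase pseudovirus mixed with antibody dilutions for 1 h and put on Huh-7 cells for about a day; IC50 from the dose curve.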

[2] = target: SARS-CoV-2 Omicron BA.2 spike pseudovirus
Protocol: as §1

[3] = target: SARS-CoV-2 Omicron BA.2.75 spike pseudovirus
Protocol: as §1

[4] = target: SARS-CoV-2 Omicron BA.5 spike pseudovirus
Protocol: as §1

[5] = target: SARS-CoV-2 Omicron BQ.1.1 spike pseudovirus
Protocol: as §1

[6] = target: SARS-CoV-2 Omicron XBB spike pseudovirus
Protocol: as §1

[7] = target: SARS-CoV-2 early D614G spike pseudovirus
Protocol: as §1

Binder	pseudovirus neutralization IC50 [1]	pseudovirus neutralization IC50 [2]	pseudovirus neutralization IC50 [3]	pseudovirus neutralization IC50 [4]	pseudovirus neutralization IC50 [5]	pseudovirus neutralization IC50 [6]	pseudovirus neutralization IC50 [7]
BD55-6158 (protein) chain 1: QVQLVQSGAEVRKPGASVKVSCKASGYTFTTYDINWVRQATGQGLEWMGWMNPNSGNTGYAHSFQSRVTMTRNTSISTAYMELSSLRGEDTAVYYCAIDAGGNKGYYYYYAMDVWGQGTTVTVSS chain 2: DIQMTQSPSSLSASVGDRVTINCRASQSISTYLNWYQQKLGKAPNLLIYDASSLQTGVPSRFSGSGSGTDFTLTISSLQPEDFATYYCQQSYSSPPTFGQGTKVEIK	> 10 µg/mL	> 10 µg/mL	> 10 µg/mL	> 10 µg/mL	> 10 µg/mL	> 10 µg/mL	> 10 µg/mL
BD55-6096 (protein) chain 1: EVQLVESGGGLVRPGRSLRLSCTASGFSFGDYALSWVRQAPGKGLEWVGFIRSRAFGGTTEYAASVKGRFTISRDDSKNIAHLQMNSLKIEDTALYFCTREFFTGTDLGFYYYMDVWGKGTTVTVSS chain 2: DIQLTQSPSTLSASVGDRVTITCRASQSVNTWLAWYQEKPGKAPKVLIYKASTLETGVPSRFSGSGFGTEFTLTISSLQPDDFATYYCQQYNGFLYTFGQGTKLEIK	> 10 µg/mL	> 10 µg/mL	> 10 µg/mL	> 10 µg/mL	> 10 µg/mL	> 10 µg/mL	> 10 µg/mL
BD55-6060 (protein) chain 1: EVQLVESGGGLVQPGGSLRLSCAASGFTFSSYDMHWVRQATGKGLEWVSVIDTAGDTDYLGSVKGRFTISRENAKNSLYLQMNSLRAGDTAVYYCARGYPHYDILAGFHYYYYGMDVWGQGTTVTVSS chain 2: QTVVTQEPSLTVSPGGTVTLTCASSTGTVTSGYYPNWFQQKPGQAPRALIYSTSNKHSWTPARFSGSLLGGKAALTLSGVQPEDEAEYYCLLYYGGAQLVFGGGTKLTVL	> 10 µg/mL	> 10 µg/mL	> 10 µg/mL	> 10 µg/mL	> 10 µg/mL	> 10 µg/mL	> 10 µg/mL
BD55-6063 (protein) chain 1: QVHLVQSGAAVRKPGSSVKVSCRASGGTFSSNAISWVRRAPGQGLEWMGRIIPIFGKVNYAQKFQGRVTITADESTGTAYMELSSLRSEDTAVYYCARAGVLGGAGSYYIADFWGQGTLVTVSS chain 2: NFLLTQPHSVSESPGKTVAISCTRSSGSIDTDYVQWYQQRPDSAPTTVIFENDQRPSGVPVRFSGSFDISSNSASLTISGLKTEDEADYYCQSYDGVNQAWVFGGGTKLTVL	> 10 µg/mL	> 10 µg/mL	> 10 µg/mL	> 10 µg/mL	> 10 µg/mL	> 10 µg/mL	0.0701 µg/mL
BD55-6068 (protein) chain 1: EEQLLESGGGLVQPGGSLRLSCAASGFTFSNYAMSWVRQAPGKGLEWVSALSNTGGATYYADSVKGRFTVSRDDSKNTLYLQMNSLRAEDTAVYYCAKNWDSIGYTSGWQHLDWFDPWGQGTLVTVSS chain 2: DIQMTQSPSSLSASVGDRVTITCRASQSIGSYLNWYQQKPGKAPKLLINVASSLQSGVPSRFSGSGSGTDFTLTINSLQPEDFATYYCQQSYTSPSITFGQGTRLEIK	> 10 µg/mL	> 10 µg/mL	> 10 µg/mL	> 10 µg/mL	> 10 µg/mL	> 10 µg/mL	0.0315 µg/mL
BD55-1177 (protein) chain 1: VELVQSGAEVKKPGSSVKVSCKTSGDTFSRYAITWVRQVSGQGLEWMGRIIPLFDKGNYAQKFQGTVTFTADKSTGTAYMELSSLRSEDTAVYYCATSGFYSDGGGHYSEYWGQGTQVTVSS chain 2: EIVLTQSPGTLSLSPGERATLSCRASQSVGGSFLAWYQQKPGQAPSLLIYGASTRATGIPDRFSGSGSGTDFSLSISRLEPEDFAVYYCQQYASAPRTFGQGTKVEI	0.00282 µg/mL	0.00188 µg/mL	0.00141 µg/mL	0.737 µg/mL	4.78 µg/mL	> 10 µg/mL	0.001 µg/mL
BD55-6130 (protein) chain 1: QVQLQESGPRLVKPSETLSLTCTVSGDSISNYYWSWIRQSPGKGLEWIGYISSTGSTDYTPSLQSRVTMSIDTSKNQFSLKLRSVTAADRAVYYCARDKCSSTSCWGGYYFDSWGQGTLVTVSS chain 2: DIQMTQSPSSLSASVGDRVTITCRASQSISSYLHWYQQSPGKAPKLLVYAASSLQSGVPSRFSGSGSGTDFTLTISGLQPEDFATYYCQQSYSTPRTFGQGTKVEIK	> 10 µg/mL	> 10 µg/mL	> 10 µg/mL	> 10 µg/mL	> 10 µg/mL	> 10 µg/mL	> 10 µg/mL
BD55-6075 (protein) chain 1: EVHLVESGGGLIQPGRSLRLSCAASGFTFGDYAMHWVRQPPGKALEWVSSISSDGRITDHADSVKGRFTISRDNAKSSLSLQMNSLRTEDTAFYYCVKDTDVARSLTTLFEFWGQGTLVTVSS chain 2: DIQMTQSPSALSASVGDRVTITCRASQTISRNLNWYQQRPGKAPRLLIYEASHLQSGVPSRFSGSGSGTDFSLTISSLQPEDFATYYCQQSYVTPQVTFGPGTKVDV	> 10 µg/mL	> 10 µg/mL	> 10 µg/mL	> 10 µg/mL	> 10 µg/mL	> 10 µg/mL	1.01 µg/mL
BD55-6071 (protein) chain 1: EVQLVESGGGLVQPGRSLRLSCTTSGFSFGDYALSWFRQAPGKGPEWIGFIRSKTDGGTTEYAASLRGRFTISRDDSKSVAYLQLNSLKTEDTAVYYCTREGKFSYYYYYAMDVWGQGTTVTVSS chain 2: DIQMTQSPSSLSASVGDRVTITCRTSQSISYYLNWYQQKPGKAPKLLIYAASSLQSGVPSRFSGSGSGTDFTLTISSLQPEDFATYYCQQSYSISLTFGGGTNVEIK	> 10 µg/mL	> 10 µg/mL	> 10 µg/mL	> 10 µg/mL	> 10 µg/mL	> 10 µg/mL	> 10 µg/mL
BD55-6193 (protein) chain 1: EVQLVESGGGFVKPGRSLRLACTASGFTFGDYTMSWFRQAPGKGLEWVGFIRNKGYGGTTEYAASVQGRFTISRDDSNSIAYLQMNSLKTEDTAVYFCAREGTFSYYYYYAMDVWGQGATVTVSS chain 2: DIQMTQSPSSLSASVGDRVTITCRASQSISFYLNWYQQKPGKAPKLLIYGASTLQNGVPSRFSGSGSGTDFTLTISSLQPEDFATYYCQHSYSISITFGQGTRLEIK	> 10 µg/mL	> 10 µg/mL	> 10 µg/mL	> 10 µg/mL	> 10 µg/mL	> 10 µg/mL	5.17 µg/mL
BD55-6066 (protein) chain 1: EVQLVQSGAEVKKPGESLKISCKGSGYTFTNYWITWVRQMPGKGLEWMGMIDPSDSYSDYSPSFQGHVTISADKAISTAYLQWSNLKASDSAMYYCARHMQQLEPSDFWGPGTLVTVSS chain 2: EIVLTQSPDFQSVTPKEKVTITCRASRSIGSSLHWYQQKPGQSPKLLIIYASQSFSGVPSRFSGSGSGTDFTLTINGLEAEDAATYYCHHSNSLLGLTFGGGTKVEIK	> 10 µg/mL	> 10 µg/mL	> 10 µg/mL	> 10 µg/mL	> 10 µg/mL	> 10 µg/mL	0.0309 µg/mL
BD55-6086 (protein) chain 1: QVQLVESGGGVVQPGRSLKLSCAASGFPFSTYAMHWVRQAPGKGLEWVAVISFDSNDEYYADSVKGRFTISRDNSKNTLYLQMNTLRAEDTALYYCARAGVLRYFDWLLSSGFAFWGQGTLVTVSS chain 2: DIQMTQSPSFLSASVGDRVTITCQASQDIRNYLNWYQQKPGKAPKLLIADASSLEAGVPSRFSGSGSGTHFIISISSLQPEDIATYYCQQYYNLPSFGQGTKLEIK	> 10 µg/mL	> 10 µg/mL	> 10 µg/mL	> 10 µg/mL	> 10 µg/mL	> 10 µg/mL	0.1 µg/mL
